Results from paper PMC5415745, “Drug-transporter mediated interactions between anthelminthic and antiretroviral drugs across the Caco-2 cell monolayers” (BMC Pharmacology & Toxicology, 2017).
Several values for one entry are separate records, joined by “and”; a condition that tells them apart may be missing. Identical values can stand only once.

System: Caco-2 cell monolayers
Assay: Bidirectional (AP→BL, BL→AP) drug transport across Caco-2 cell monolayers in transwells: cumulative transport, Papp, efflux ratio; HPLC or radiolabeled assay
Details: individual samples 1-3

Structure (SMILES)	Efflux ratio ER (PappBA/PappAB) (60 min (3600 sec))	Basal to apical transport (cumulative, receiver) (180 min) [pmol]	Apical to basal transport (cumulative, receiver) (180 min)
CC[C@H](C)[C@H]1O[C@]2(CC[C@@H]1C)C[C@@H]1C[C@@H](C/C=C(\C)[C@@H](O[C@H]3C[C@H](OC)[C@@H](O[C@H]4C[C@H](OC)[C@@H](O)[C@H](C)O4)[C@H](C)O3)[C@@H](C)/C=C/C=C3\CO[C@@H]4[C@H](O)C(C)=C[C@@H](C(=O)O1)[C@]34O)O2 [IVM, ivermectin]	1.19	1.49	
O=C(C1CCCCC1)N1CC(=O)N2CCc3ccccc3C2C1 (stereo not shown) [PZQ, praziquantel]		22.42	26.92 pmol and 26.96 pmol
